For 11 molecules, Ki results are on record in US20090029924A1, “Targeting host proteinases as a therapeutic strategy against viral and bacterial pathogens” (published 2009).

In general, Ki refers to the dissociation constant of the complex between target and ligand, obtained from inhibition or displacement.

The experiment concerns the target Recombinant human furin (human), P09958. Description: furin, Pyr-RTKR-AMC cleavage.

TPQRARRRKKRY (modifications not checked): the inhibition constant Ki was found to be 47 nM.

With TPQRARRRKKRW (modifications not checked), the Ki stood at 34 nM.

TPQRARRRKKRE (modifications not checked): the Ki stood at 103 nM.

With TPQRARRRKKRV (modifications not checked), the inhibition constant Ki amounted to 48 nM.

As to AARERRRKKRG (modifications not checked), the Ki was greater than 100 nM.

TPQRARRRKKRD (modifications not checked): the inhibition constant Ki is 50 nM.

For TPQRARRRKKRG (modifications not checked), the Ki was greater than 100 nM.

In the case of TPQRARRRKKRM (modifications not checked), the inhibitory constant (Ki) stood at 58 nM.

As to TPQRARRRKKRF (modifications not checked), the Ki came out at 44 nM.

For TPQRERRRKKRG (modifications not checked), the Ki is greater than 100 nM.

On to AARERRRKKR (modifications not checked), for which the inhibitory constant (Ki) was greater than 100 nM.
